Pooled drug test results. Numbers come from NIAID ChemDB, via PubChem.

Shared fields: growth or infection tests; agent: Rhinovirus; endpoint: inhibition

Lines come from different laboratories, so protocols vary. Two numbers with a dash give a range or band. An empty or dashed field is not shown. Inhibition is in % at the dose shown (toxicity tests: loss of growth or viability).

SMILES | strain or isolate | cell line | method | dose | value
CS(=O)(=O)c1ccc2c(c1)CCC(c1ccc(Cl)c(Cl)c1)O2 | 100 serotypes | - | - | 0.013 µg/mL | 18%
Cc1cc(Cn2cnc3c(N(C)C)nc(C(F)(F)F)nc32)ccc1Cl | Serotype 30 | M-HELA | plaque count | 8 µM | 31%
O=S(=O)([O-])c1ccccc1S(=O)(=O)[O-] | - | Human embryonic lung cells | cytopathic effect | 50 µg/mL | 0%
COc1ccc(N2CCN(c3cccc(C)c3)CC2)nn1 | 100 serotypes | - | - | 3 µg/mL | 53%
Nc1c(S(=O)(=O)[O-])cc2cc(S(=O)(=O)[O-])ccc2c1O | - | Human amnion AV3 cells | cytopathic effect | 50 µg/mL | 0%
Cc1cccc(N2CCN(c3ccc(Br)nn3)CC2)c1 | 17 serotypes | - | - | 0.024 µg/mL | 18%
O=S(=O)(O)c1cc(O)c2c(O)c(N=Nc3ccccc3)c(S(=O)(=O)O)cc2c1 | - | Human amnion AV3 cells | cytopathic effect | 10 µg/mL | 16%
CN(C)c1nc(C(F)(F)F)nc2c1ncn2Cc1ccc([N+](=O)[O-])cc1 | Serotype 1A | M-HELA | plaque count | 4 µM | 38%
N#Cc1cc([N+](=O)[O-])ccc1Oc1ccc(Cl)c(Cl)c1 | TYPE 1A | VERO | - | 0.048 µg/mL | 11%
CN(C)c1ccc(Cn2cnc3c(N(C)C)nc(C(F)(F)F)nc32)cc1 | Serotype 30 | M-HELA | plaque count | 8 µM | 35%
O=S(=O)([O-])c1cc(O)c2ccccc2c1 | - | Human embryonic lung cells | cytopathic effect | 10 µg/mL | 44%
Cc1ccc(Cn2cnc3c(N(C)C)nc(C(F)(F)F)nc32)cc1 | Serotype 5 | M-HELA | plaque count | 8 µM | 18%
O=C(O)Cc1csc(/N=C2\SC[C@@H]3Cc4ccccc4CN23)n1 | Serotype 6 | MRC-5 | cytopathic effect | 7 µg/mL | 80–100%
CN(C)c1nc(C(F)(F)F)nc2c1ncn2Cc1ccccc1 | Serotype 19 | M-HELA | plaque count | 8 µM | 32%
Cc1ccc(N2CCC(c3cccc(C(F)(F)F)c3)C2)nn1 | 100 serotypes | - | - | 5.7 µg/mL | 71%

A second listing of 2 rows from above:

SMILES	strain or isolate	cell line	method	dose	value
COc1ccc(N2CCN(c3cccc(C)c3)CC2)nn1	100 serotypes	-	-	3 µg/mL	53%
CN(C)c1nc(C(F)(F)F)nc2c1ncn2Cc1ccccc1	Serotype 19	M-HELA	plaque count	8 µM	32%